The exact form of at least one protein or probe is not confirmed.

The series has as its target phosphorylated His6-CpxR (UniProt A0A0H2ZDR9). The series can be described thus: EMSA. The conditions noted are these: acetyl phosphate, 20-160 nM CpxR; EMSA: 0.2 nM DIG-DNA, 37 C 30 min, 6% native PAGE; phosphorylation in 100 mM Tris-HCl pH 7.4, 10 mM MgCl2, 125 mM KCl, 50 mM acetyl phosphate, 30 C 2 h; recombinant protein; residues 1-225; protein details: N-terminal His6 (pET28a); label: DIG; probe letters rebuilt from the primers and the genome.

Turning to “CCTTTCTGGGTCCGGCCATTTACCGGATGAGCCCAGTCTAGGGAGGTCAAGGTCAAGCGCGGTCAGCCCTGGGTAAAGCTTGGGTAAAGACCTTGTGTCGGCGGGCTGACGAAACCCGCTCAGTGGCTGTAGTAGTAGCC (double strand) [cpxPp probe]”, the binding result is on record as “binds”.

As for “CATGCTGGAAGACCGCCATCAGCGCGGGCATCAGGTCGGGATTCACGGGGTAGTTCATTGGTTTGGCCGAGTAAACCTAATGTAAATGTGGTTGATCCAGTCAACTATTTTGCTTATTTTAGTTGACCTTATCAACCTTGTTTCAGGTTCTGAATATGGGCCATG (double strand) [mexAp probe]”, the binding result is “binds”.

For the origin of these results see publication PMC5063474.
